The values below come from paper PMC9736018.

The exact form of at least one protein or probe is not confirmed. A negative result means that nothing was seen under these conditions. Tags and fusion partners may be left off the protein sequences shown.

The target in the data set is T1, PA3973-His6 (Pseudomonas aeruginosa PAO1161) (UniProt Q9HX43).
T1 sequence (looked up, limits assumed): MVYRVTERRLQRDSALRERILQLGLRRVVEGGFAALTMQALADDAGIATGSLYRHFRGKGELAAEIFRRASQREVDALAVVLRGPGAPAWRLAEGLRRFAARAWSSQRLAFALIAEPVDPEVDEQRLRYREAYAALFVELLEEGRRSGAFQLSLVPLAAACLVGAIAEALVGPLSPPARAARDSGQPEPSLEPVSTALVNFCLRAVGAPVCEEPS
Briefly: EMSA. The following applies: with NS competitor DNA, 10 mM Tris-HCl pH 8.5, 10 mM MgCl2, 100 mM KCl, 0.1 mg/mL BSA, ~100 ng DNA plus ~300 ng NS competitor in 20 uL, 23 C, 30 min, 1.5% agarose, 0.5x TBE, 4 C, recombinant protein, protein details: C-terminal His6, probe letters rebuilt from the primers and the genome. For orientation: Mobility shift assays separate free from complexed probe on a gel.

In the case of “GCAAGCTTAGACCATGACTGAATCCGGATTCACTTTTTCCCAGTGAATCACGCTTCAGGCTTTGCCTAAAGAGACATACAGGTCGCGCAGGCCGGCATTTCAGCCAGCCGCGGAACGGCTTCAGGCGGACTTGGTGACGATCGGCTGGCACAGCAGCCAATCGTGCAGCAGGGTCTGCAACTCTTCGAACTTGACCGGCTTGGCCATGTAGTCGCTCATGCCCGCCGCCAGGCAGCGCTCGCGATCGCCGCTGTGGCTGTGGGCGGTCAACGCCAGCACCGGCAGTTCCGCGCAGCCGGGCAGCGCGCGGATCGCCCGACAGGTGGCGAAGCCGTCCATCACCGGCATCTGGCAGTCGAGCAGTACGCCGTCGAATTCGC (double strand) [PA3973p]”, the binding result (concentration-dependent, strongest of the targets) is “binds”.
For “GCGGATCCTCACGCTTCAGGCTTTGCCTAAAGAGACATACAGGTCGCGCAGGCCGGCATTTCAGCCAGCCGCGGAACGGCTTCAGGCGGACTTGGTGACGATCGGCTGGCACAGCAGCCAATCGTGCAGCAGGGTCTGCAACTCTTCGAACTTGACCGGCTTGGCCATGTAGTCGCTCATGCCCGCCGCCAGGCAGCGCTCGCGATCGCCGCTGTGGCTGTGGGCGGTCAACGCCAGCACCGGCAGTTCCGCGCAGCCGGGCAGCGCGCGGATCGCCCGACAGGTGGCGAAGCCGTCCATCACCGGCATCTGGCAGTCGAGCAGTACGCCGTCGAATTCGC (double strand) [PA3973p*]”, the binding result was “no binding”.
